Pooled drug test results. Numbers come from NIAID ChemDB, via PubChem.

Common to all: tests in culture; organism: Mycobacterium avium

Two numbers with a dash give a range or band.

structure | tested at | read by | read-out | strain or isolate | mutations | setting | value
O=c1[nH]c(=O)n([C@@H]2O[C@H](CO)[C@@H](O)[C@H]2F)cc1I | 50 µg/mL |  | inhibition | ATCC 25291 |  |  | 0%
Cc1ccn2c(C(=O)NCc3ccc(Oc4cccc(C(F)(F)F)c4)cc3)c(C)nc2c1 |  | resazurin | MIC | 2151 |  |  | <2 µM
Cc1nc2ccccn2c1C(=O)NCc1ccc(N2CCN(c3ccc(OC(F)(F)F)cc3)[C@@H](C)C2)c(F)c1.Cl | 0.0054 µM | fluorescence | inhibition |  |  |  | 85%
COc1ccc(Nc2nnc(-c3ccncc3)o2)cc1 |  | broth dilution | MIC100 | MY330/88 |  | 14 d | >125 µM
CCCCOc1ccc(N2CCC(c3ccc(CNC(=O)c4c(CC)nc5cc(F)ccn45)c(F)c3)CC2)cc1.Cl | 0.01 µM | fluorescence | inhibition |  |  |  | 85%
Cc1onc(-c2ccccc2Cl)c1C(=O)N[C@@H]1C(=O)N2[C@@H]1SC(C)(C)[C@@H]2C(=O)O |  |  | Median MIC | ATCC 25291 |  |  | >256 µg/mL
Cc1cn([C@H]2C=C[C@@H](CO)O2)c(=O)[nH]c1=O | 50 µg/mL |  | inhibition | ATCC 25291 |  |  | 25%
CCCCCCc1ccc(NC(=O)NNC(=O)c2ccncc2)cc1 |  | broth dilution | MIC100 | MY330/88 |  | 14 d | 62.5 µM
CC[C@H]1OC(=O)[C@H](C)[C@@H](O[C@H]2C[C@@](C)(OC)[C@@H](O)[C@H](C)O2)[C@H](C)[C@@H](O[C@@H]2O[C@H](C)C[C@H](N(C)C)[C@H]2O)[C@](C)(OC)C[C@@H](C)C(=O)[C@H](C)[C@@H](O)[C@]1(C)O |  | broth dilution / radiometric | MIC50 | MAC 101 |  |  | 2 µg/mL
CCCCCCCNC(=O)NNC(=O)c1ccncc1 |  | broth dilution | MIC100 | MY330/88 |  | 14 d | 32 µM
C=CCS/C(N)=N\N=C\c1ccc(F)cc1 |  |  | MIC50 | Clinical isolates |  |  | 6.25 µg/mL
Cc1cn2c(C(=O)NCc3ccc(Oc4ccc(C(F)(F)F)cc4)cc3)c(C)nc2s1 |  | resazurin | MIC | 101 |  |  | <2 µM
N/C(=N\NC(CC(=O)c1ccc(Cl)c(Cl)c1)c1cccnc1)c1ccccn1 |  |  | MIC50 | 17 strains |  |  | 32 µg/mL
CCCCCCCCc1ccc(NC(=O)NNC(=O)c2ccncc2)cc1 |  | broth dilution | MIC100 | MY330/88 |  | 21 d | 500 µM
Cc1ccn2c(C(=O)NCc3ccc(N4CCOCC4)c(F)c3)c(C)nc2c1 |  | resazurin | MIC | 2151 |  |  | 2–10 µM
N/C(=N\NC(CC(=O)c1ccc(Cl)c(Cl)c1)c1ccncc1)c1ccccn1 |  |  | MIC90 | 17 strains |  |  | 32 µg/mL
CC1COc2c(N3CCN(C)CC3)c(F)cc3c(=O)c(C(=O)O)cn1c23 |  |  | Median MIC | ATCC 25291 |  |  | >8 µg/mL
NNC(=O)c1ccncc1 |  |  | MBC | 1854-4 |  |  | 80 µg/mL
O=c1ccn([C@H]2C[C@H](F)[C@@H](CO)O2)c(=O)[nH]1 |  |  | EC50 | ATCC 25291 |  |  | >50 µg/mL
COc1ccn2nc(C)c(C(=O)NCc3ccc(C4CCN(c5ccc(OC(F)(F)F)cc5)CC4)c(F)c3)c2c1.Cl | 0.0072 µM | fluorescence | inhibition |  |  |  | 85%
Cc1ccc2nc(C(F)(F)F)c(C(=O)NCc3ccc4c(c3)CCO4)n2c1 |  | resazurin | MIC | 101 |  |  | <2 µM
CCOc1ccc(N2CCC(c3ccc(CNC(=O)c4c(CC)nc5ccc(Cl)cn45)c(F)c3)CC2)cc1.Cl | 0.023 µM | fluorescence | inhibition |  |  |  | 85%
O=C(NNC(=O)c1ccncc1)Nc1ccc(Br)cc1F |  | broth dilution | MIC100 | MY330/88 |  | 14 d | >125 µM
CC(=O)OC[C@H]1O[C@@H](n2cc(C(F)CBr)c(=O)[nH]c2=O)C[C@@H]1OC(C)=O |  |  | EC90 | ATCC 25291 |  |  | 1–5 µg/mL
O[C@H](c1cc(C(F)(F)F)nc2c(C(F)(F)F)cccc12)[C@@H]1CCCCN1 |  | broth dilution / radiometric | MIC90 | MAC 101 |  |  | 16 µg/mL
Fc1cc(Nc2nnc(-c3ccncc3)o2)ccc1Br |  | broth dilution | MIC100 | MY330/88 |  | 21 d | >125 µM
N/C(=N\NC(CC(=O)c1cccc(Cl)c1)c1cccnc1)c1ccccn1 |  |  | MIC90 | 17 strains |  |  | 160 µg/mL
CC[C@H]1OC(=O)[C@H](C)[C@@H](O[C@H]2C[C@@](C)(OC)[C@@H](O)[C@H](C)O2)[C@H](C)[C@@H](O[C@@H]2O[C@H](C)C[C@H](N(C)C)[C@H]2O)[C@](C)(OC)C[C@@H](C)C(=O)[C@H](C)[C@@H](O)[C@]1(C)O |  |  | MBC | 3011 |  |  | 64 µg/mL
Cc1ccc(C(=O)CC(N/N=C(\N)c2ccccn2)c2cccnc2)cc1 |  |  | MIC50 | 17 strains |  |  | 160 µg/mL
CCc1nc2ccc(Cl)cn2c1C(=O)NCc1ccc(N2CCSCC2)c(F)c1 |  | resazurin | MIC | 104 | Gentamicin-resistant |  | <0.0078 µg/mL
Cc1cccc(C(=O)CC(N/N=C(\N)c2ccccn2)c2cccnc2)c1 |  |  | MIC50 | 17 strains |  |  | 160 µg/mL
NC[C@H]1O[C@H](O[C@H]2[C@H](O)[C@@H](O[C@H]3O[C@H](CO)[C@@H](O)[C@H](N)[C@H]3O)[C@H](N)C[C@@H]2N)[C@H](O)[C@@H](O)[C@@H]1O |  |  | Mean MIC | ATCC 25291 |  |  | 2.5 µg/mL
Cc1nc2ccc(F)cn2c1C(=O)NCc1ccc(N2CCN(c3ccc(C(F)(F)F)cn3)CC2)c(C(F)(F)F)c1 | 0.42 µM | fluorescence | inhibition |  |  |  | 85%
CCCCCc1ccc(NC(=O)NNC(=O)c2ccncc2)cc1 |  | broth dilution | MIC100 | MY330/88 |  | 21 d | 125 µM
O[C@@H](c1cc(C(F)(F)F)nc2c(C(F)(F)F)cccc12)[C@H]1CCCCN1 |  | broth dilution / radiometric | MIC50 | MAC 101 |  |  | 64 µg/mL
N/C(=N\NC(CC(=O)c1ccc(Cl)cc1Cl)c1ccccn1)c1ccccn1 |  |  | MIC50 | 17 strains |  |  | 16 µg/mL
O=C(NNC(=O)c1ccncc1)Nc1ccc(Cl)c(Cl)c1 |  | broth dilution | MIC100 | MY330/88 |  | 14 d | >125 µM
[2H]c1c(C([2H])([2H])[2H])c([2H])c2nc(C)c(C(=O)NCc3ccc(C4CCN(c5ccc(OC(F)(F)F)cc5)CC4)c(F)c3)n2c1[2H] | 0.021 µM | fluorescence | inhibition |  |  |  | 85%
N/C(=N\NC(CC(=O)c1cccc(Cl)c1)c1ccccn1)c1ccccn1 |  |  | MIC90 | 17 strains |  |  | 160 µg/mL

The first 5 rows once more:

structure,tested at,read by,read-out,strain or isolate,mutations,setting,value
O=c1[nH]c(=O)n([C@@H]2O[C@H](CO)[C@@H](O)[C@H]2F)cc1I,50 µg/mL,,inhibition,ATCC 25291,,,0%
Cc1ccn2c(C(=O)NCc3ccc(Oc4cccc(C(F)(F)F)c4)cc3)c(C)nc2c1,,resazurin,MIC,2151,,,<2 µM
Cc1nc2ccccn2c1C(=O)NCc1ccc(N2CCN(c3ccc(OC(F)(F)F)cc3)[C@@H](C)C2)c(F)c1.Cl,0.0054 µM,fluorescence,inhibition,,,,85%
COc1ccc(Nc2nnc(-c3ccncc3)o2)cc1,,broth dilution,MIC100,MY330/88,,14 d,>125 µM
CCCCOc1ccc(N2CCC(c3ccc(CNC(=O)c4c(CC)nc5cc(F)ccn45)c(F)c3)CC2)cc1.Cl,0.01 µM,fluorescence,inhibition,,,,85%

MIC50, MIC90 and the like: level of inhibition, or share of isolates inhibited. An empty or dashed field is not shown. ECn: concentration that inhibits the pathogen or its effect by n%. Inhibition is in % at the dose shown (toxicity tests: loss of growth or viability). Rows are shuffled and stem from different studies.